Test results taken from patent US20220089698A1, “ANTIBODIES THAT TARGET HIV GP120 AND METHODS OF USE” (published 2022).

Tests used:
Experiment in all cases: cell-based or functional assay
[1] = molecular target: HIV-1 envelope glycoprotein (gp120) of virus 7141 (HIV-1)
[2] = molecular target: HIV-1 envelope glycoprotein (gp120) of virus 92US727 (HIV-1)
[3] = molecular target: HIV-1 envelope glycoprotein (gp120) of virus VS001 (HIV-1)

Row | Binder | Neutralization IC50 [1] [mg/L] | Neutralization IC50 [2] [mg/L] | Neutralization IC50 [3] [mg/L]
1 | 3-1 (antibody, human IgG1, kappa) heavy: QVQLLQSGAAVTKPGASVRVSCEASGYNIRDYFIHWWRQAPGQGLQWVGWINPKTGQPNNPRQFQGRVSLTRHASWDFDTFSFYMDLKALRSDDTAVYFCARQRSDYWDFDVWGSGTQVTVSSASTKGPSVFPLAPSSKSTSGGTAALGCLVKDYFPEPVTVSWNSGALTSGVHTFPAVLQSSGLYSLSSVVTVPSSSLGTQTYICNVNHKPSNTKVDKKVEPKSCDKTHTCPPCPAPELLAGPDVFLFPPKPKDTLMISRTPEVTCVVVDVSHEDPEVKFNWYVDGVEVHNAKTKPREEQYNSTYRVVSVLTVLHQDWLNGKEYKCKVSNKALPLPEEKTISKAKGQPREPQVYTLPPSREEMTKNQVSLTCLVKGFYPSDIAVEWESNGQPENNYKTTPPVLDSDGSFFLYSKLTVDKSRWQQGNVFSCSVLHEALHSHYTQKSLSLSPGK light: not shown | 4.03 | 3.92 | 0.1
2 | 1.1.64-1 (antibody, human IgG1, kappa) heavy: QVQLLQSGAAVTKPGASVRVSCEASGYNIRDYFIHWWRQAPGQGLQWVGWINPKTGQPNNPRQFQGRVSLTRHASWDFDTFSFYMDLKALRSDDTAVYFCARQRSDYWDFDVWGSGTQVTVSSASTKGPSVFPLAPSSKSTSGGTAALGCLVKDYFPEPVTVSWNSGALTSGVHTFPAVLQSSGLYSLSSVVTVPSSSLGTQTYICNVNHKPSNTKVDKKVEPKSCDKTHTCPPCPAPELLAGPDVFLFPPKPKDTLMISRTPEVTCVVVDVSHEDPEVKFNWYVDGVEVHNAKTKPREEQYNSTYRVVSVLTVLHQDWLNGKEYKCKVSNKALPLPEEKTISKAKGQPREPQVYTLPPSREEMTKNQVSLTCLVKGFYPSDIAVEWESNGQPENNYKTTPPVLDSDGSFFLYSKLTVDKSRWQQGNVFSCSVLHEALHSHYTQKSLSLSPGK light: not shown | 0.64 | 0.55 | 0.05
3 | 1.1.10-1 (antibody, human IgG1, kappa) heavy: QVQLLQSGAAVTKPGASVRVSCEASGYNIRDYFIHWWRQAPGQGLQWVGWINPKTGQPNNPRQFQGRVSLTRHASWDFDTFSFYMDLKALRSDDTAVYFCARQRSDYWDFDVWGSGTQVTVSSASTKGPSVFPLAPSSKSTSGGTAALGCLVKDYFPEPVTVSWNSGALTSGVHTFPAVLQSSGLYSLSSVVTVPSSSLGTQTYICNVNHKPSNTKVDKKVEPKSCDKTHTCPPCPAPELLAGPDVFLFPPKPKDTLMISRTPEVTCVVVDVSHEDPEVKFNWYVDGVEVHNAKTKPREEQYNSTYRVVSVLTVLHQDWLNGKEYKCKVSNKALPLPEEKTISKAKGQPREPQVYTLPPSREEMTKNQVSLTCLVKGFYPSDIAVEWESNGQPENNYKTTPPVLDSDGSFFLYSKLTVDKSRWQQGNVFSCSVLHEALHSHYTQKSLSLSPGK light: not shown | 5.43 | 45 | 0.17
4 | 1.1.116-1 (antibody, human IgG1, kappa) heavy: QVQLLQSGAAVTKPGASVRVSCEASGYNIRDYFIHWWRQAPGQGLQWVGWINPKTGQPNNPRQFQGRVSLTRHASWDFDTFSFYMDLKALRSDDTAVYFCARQRSDYWDFDVWGSGTQVTVSSASTKGPSVFPLAPSSKSTSGGTAALGCLVKDYFPEPVTVSWNSGALTSGVHTFPAVLQSSGLYSLSSVVTVPSSSLGTQTYICNVNHKPSNTKVDKKVEPKSCDKTHTCPPCPAPELLAGPDVFLFPPKPKDTLMISRTPEVTCVVVDVSHEDPEVKFNWYVDGVEVHNAKTKPREEQYNSTYRVVSVLTVLHQDWLNGKEYKCKVSNKALPLPEEKTISKAKGQPREPQVYTLPPSREEMTKNQVSLTCLVKGFYPSDIAVEWESNGQPENNYKTTPPVLDSDGSFFLYSKLTVDKSRWQQGNVFSCSVLHEALHSHYTQKSLSLSPGK light: not shown | 14.6 | > 36 | 0.44
5 | 3.1.14-1 (antibody, human IgG1, kappa) heavy: QVQLLQSGAAVTKPGASVRVSCEASGYNIRDYFIHWWRQAPGQGLQWVGWINPKTGQPNNPRQFQGRVSLTRHASWDFDTFSFYMDLKALRSDDTAVYFCARQRSDYWDFDVWGSGTQVTVSSASTKGPSVFPLAPSSKSTSGGTAALGCLVKDYFPEPVTVSWNSGALTSGVHTFPAVLQSSGLYSLSSVVTVPSSSLGTQTYICNVNHKPSNTKVDKKVEPKSCDKTHTCPPCPAPELLAGPDVFLFPPKPKDTLMISRTPEVTCVVVDVSHEDPEVKFNWYVDGVEVHNAKTKPREEQYNSTYRVVSVLTVLHQDWLNGKEYKCKVSNKALPLPEEKTISKAKGQPREPQVYTLPPSREEMTKNQVSLTCLVKGFYPSDIAVEWESNGQPENNYKTTPPVLDSDGSFFLYSKLTVDKSRWQQGNVFSCSVLHEALHSHYTQKSLSLSPGK light: not shown | 6.42 | > 27 | 0.19
6 | 1.44.1-1 (antibody, human IgG1, kappa) heavy: QVQLLQSGAAVTKPGASVRVSCEASGYKIRDYFIHWWRQAPGQGLQWVGWINPKTGQPNNPRQFQGRVSLTRHASWDFDTFSFYMDLKALRSDDTAVYFCARQRSDYWDFDVWGSGTQVTVSSASTKGPSVFPLAPSSKSTSGGTAALGCLVKDYFPEPVTVSWNSGALTSGVHTFPAVLQSSGLYSLSSVVTVPSSSLGTQTYICNVNHKPSNTKVDKKVEPKSCDKTHTCPPCPAPELLAGPDVFLFPPKPKDTLMISRTPEVTCVVVDVSHEDPEVKFNWYVDGVEVHNAKTKPREEQYNSTYRVVSVLTVLHQDWLNGKEYKCKVSNKALPLPEEKTISKAKGQPREPQVYTLPPSREEMTKNQVSLTCLVKGFYPSDIAVEWESNGQPENNYKTTPPVLDSDGSFFLYSKLTVDKSRWQQGNVFSCSVLHEALHSHYTQKSLSLSPGK light: not shown | 1.43 | – | 0.13
7 | 1.1.67-1 (antibody, human IgG1, kappa) heavy: QVQLLQSGAAVTKPGASVRVSCEASGYNIRDYFIHWWRQAPGQGLQWVGWINPKTGQPNNPRQFQGRVSLTRHASWDFDTFSFYMDLKALRSDDTAVYFCARQRSDYWDFDVWGSGTQVTVSSASTKGPSVFPLAPSSKSTSGGTAALGCLVKDYFPEPVTVSWNSGALTSGVHTFPAVLQSSGLYSLSSVVTVPSSSLGTQTYICNVNHKPSNTKVDKKVEPKSCDKTHTCPPCPAPELLAGPDVFLFPPKPKDTLMISRTPEVTCVVVDVSHEDPEVKFNWYVDGVEVHNAKTKPREEQYNSTYRVVSVLTVLHQDWLNGKEYKCKVSNKALPLPEEKTISKAKGQPREPQVYTLPPSREEMTKNQVSLTCLVKGFYPSDIAVEWESNGQPENNYKTTPPVLDSDGSFFLYSKLTVDKSRWQQGNVFSCSVLHEALHSHYTQKSLSLSPGK light: not shown | 3.76 | 8.1 | 0.15
8 | 3.1.10-1 (antibody, human IgG1, kappa) heavy: QVQLLQSGAAVTKPGASVRVSCEASGYNIRDYFIHWWRQAPGQGLQWVGWINPKTGQPNNPRQFQGRVSLTRHASWDFDTFSFYMDLKALRSDDTAVYFCARQRSDYWDFDVWGSGTQVTVSSASTKGPSVFPLAPSSKSTSGGTAALGCLVKDYFPEPVTVSWNSGALTSGVHTFPAVLQSSGLYSLSSVVTVPSSSLGTQTYICNVNHKPSNTKVDKKVEPKSCDKTHTCPPCPAPELLAGPDVFLFPPKPKDTLMISRTPEVTCVVVDVSHEDPEVKFNWYVDGVEVHNAKTKPREEQYNSTYRVVSVLTVLHQDWLNGKEYKCKVSNKALPLPEEKTISKAKGQPREPQVYTLPPSREEMTKNQVSLTCLVKGFYPSDIAVEWESNGQPENNYKTTPPVLDSDGSFFLYSKLTVDKSRWQQGNVFSCSVLHEALHSHYTQKSLSLSPGK light: not shown | 44.8 | > 50 | 2.24
9 | 3.1.11-1 (antibody, human IgG1, kappa) heavy: QVQLLQSGAAVTKPGASVRVSCEASGYNIRDYFIHWWRQAPGQGLQWVGWINPKTGQPNNPRQFQGRVSLTRHASWDFDTFSFYMDLKALRSDDTAVYFCARQRSDYWDFDVWGSGTQVTVSSASTKGPSVFPLAPSSKSTSGGTAALGCLVKDYFPEPVTVSWNSGALTSGVHTFPAVLQSSGLYSLSSVVTVPSSSLGTQTYICNVNHKPSNTKVDKKVEPKSCDKTHTCPPCPAPELLAGPDVFLFPPKPKDTLMISRTPEVTCVVVDVSHEDPEVKFNWYVDGVEVHNAKTKPREEQYNSTYRVVSVLTVLHQDWLNGKEYKCKVSNKALPLPEEKTISKAKGQPREPQVYTLPPSREEMTKNQVSLTCLVKGFYPSDIAVEWESNGQPENNYKTTPPVLDSDGSFFLYSKLTVDKSRWQQGNVFSCSVLHEALHSHYTQKSLSLSPGK light: not shown | 8.7 | > 44 | 0.57
10 | 1.1.115-1 (antibody, human IgG1, kappa) heavy: QVQLLQSGAAVTKPGASVRVSCEASGYNIRDYFIHWWRQAPGQGLQWVGWINPKTGQPNNPRQFQGRVSLTRHASWDFDTFSFYMDLKALRSDDTAVYFCARQRSDYWDFDVWGSGTQVTVSSASTKGPSVFPLAPSSKSTSGGTAALGCLVKDYFPEPVTVSWNSGALTSGVHTFPAVLQSSGLYSLSSVVTVPSSSLGTQTYICNVNHKPSNTKVDKKVEPKSCDKTHTCPPCPAPELLAGPDVFLFPPKPKDTLMISRTPEVTCVVVDVSHEDPEVKFNWYVDGVEVHNAKTKPREEQYNSTYRVVSVLTVLHQDWLNGKEYKCKVSNKALPLPEEKTISKAKGQPREPQVYTLPPSREEMTKNQVSLTCLVKGFYPSDIAVEWESNGQPENNYKTTPPVLDSDGSFFLYSKLTVDKSRWQQGNVFSCSVLHEALHSHYTQKSLSLSPGK light: not shown | 10.1 | > 50 | 0.75
11 | 3.1.8-1 (antibody, human IgG1, kappa) heavy: QVQLLQSGAAVTKPGASVRVSCEASGYNIRDYFIHWWRQAPGQGLQWVGWINPKTGQPNNPRQFQGRVSLTRHASWDFDTFSFYMDLKALRSDDTAVYFCARQRSDYWDFDVWGSGTQVTVSSASTKGPSVFPLAPSSKSTSGGTAALGCLVKDYFPEPVTVSWNSGALTSGVHTFPAVLQSSGLYSLSSVVTVPSSSLGTQTYICNVNHKPSNTKVDKKVEPKSCDKTHTCPPCPAPELLAGPDVFLFPPKPKDTLMISRTPEVTCVVVDVSHEDPEVKFNWYVDGVEVHNAKTKPREEQYNSTYRVVSVLTVLHQDWLNGKEYKCKVSNKALPLPEEKTISKAKGQPREPQVYTLPPSREEMTKNQVSLTCLVKGFYPSDIAVEWESNGQPENNYKTTPPVLDSDGSFFLYSKLTVDKSRWQQGNVFSCSVLHEALHSHYTQKSLSLSPGK light: not shown | 3.51 | 1.15 | 0.11
